Measured values from several laboratories, pooled; numbers as filed in NIAID ChemDB.

Common to all: growth or infection tests

Blank or dashed fields: not listed here. Zones are inhibition diameters on agar. Two numbers with a dash give a range or band. A number after MIC or MFC names an inhibition level or a share of isolates. Percent inhibition refers to the dose given; in toxicity tests it is the harm to the cells. Conditions beyond the fields shown may differ between rows. ECn is the concentration giving n% inhibition of infection, replication or growth.

COc1ccc(C=NNC(=O)c2snnc2C(F)(F)F)cc1 ; agent: Candida rugosa ; strain: NCIM 3462 ; method: agar diffusion / agar ; measure: zone ; dose: 100 µg/mL ; value: 0 mm
Clc1ccc(C(c2ccccc2)n2cnc3ccccc32)cc1 ; agent: Candida dubliniensis ; method: broth dilution ; measure: MFC ; value: >256 µg/mL
O=C(NN=Cc1cccs1)c1snnc1C(F)(F)F ; agent: Candida rugosa ; strain: NCIM 3462 ; method: agar diffusion / agar ; measure: zone ; dose: 100 µg/mL ; value: 0 mm
CCC(C)CC(C)CCCCCCCCC(=O)N[C@H]1C[C@@H](O)[C@H](NCCN)NC(=O)[C@@H]2[C@@H](O)CCN2C(=O)[C@H]([C@H](O)CCN)NC(=O)[C@H]([C@H](O)[C@@H](O)c2ccc(O)cc2)NC(=O)[C@@H]2C[C@@H](O)CN2C(=O)[C@H]([C@@H](C)O)NC1=O ; agent: Candida tropicalis ; strain: 8684 ; method: broth dilution ; measure: MIC ; value: 4 µg/mL
C[C@@H](N1CCN(Cc2cn(Cc3ccc(F)cc3F)c3c(F)cccc23)CC1)[C@](O)(Cn1cncn1)c1ccc(F)cc1F ; agent: Candida albicans ; strain: ATCC MYA-1003 ; method: resazurin ; measure: MIC80 ; value: 8 µg/mL
CC(C)(O)c1cn(-c2ccc3ccccc3c2)nn1 ; agent: Candida albicans ; strain: URM 4125 ; method: broth dilution ; measure: inhibition ; dose: 2048 µg/mL ; value: 0%
COc1ccc(C(c2ccc(OC)cc2)n2ccnc2)cc1 ; agent: Candida glabrata ; method: broth dilution ; measure: MFC ; value: >256 µg/mL
O/N=C\c1ccc(O)cc1 ; agent: Candida lipolytica ; method: broth dilution ; measure: MFC ; value: >7290 µM
Nc1[nH]c(=O)ncc1F ; agent: Candida albicans ; strain: 10 isolates ; method: broth dilution ; conditions: pH 5 ; measure: EC90 ; value: 2 µg/mL
O/N=C/c1ccc(O)cc1 ; agent: Candida famata ; measure: MIC ; value: >7290 µM
CCC(C)n1ncn(-c2ccc(N3CCN(c4ccc(OC[C@H]5CO[C@](Cn6cncn6)(c6ccc(Cl)cc6Cl)O5)cc4)CC3)cc2)c1=O ; agent: Candida dubliniensis ; method: broth dilution ; measure: MIC50 ; value: 0.03 µg/mL
CC(=O)OC[C@H]1O[C@@H](O[C@@H]2[C@@H](N=[N+]=[N-])[C@H](O)[C@H](O)[C@H]3OC(C)(C)O[C@H]32)[C@H](OC(C)=O)[C@@H](OC(C)=O)[C@H]1OC(C)=O ; agent: Candida tropicalis ; strain: C 131 ; method: broth dilution / turbidity ; measure: inhibition ; dose: 15.6 µg/mL ; value: 3.47%
CCCCCOc1ccc(-c2cc(-c3ccc(C(=O)N[C@H]4C[C@@H](O)[C@@H](O)NC(=O)[C@@H]5[C@@H](O)[C@@H](C)CN5C(=O)[C@H]([C@H](O)CC(N)=O)NC(=O)[C@H]([C@H](O)[C@@H](O)c5ccc(O)c(OS(=O)(=O)O)c5)NC(=O)[C@@H]5C[C@@H](O)CN5C(=O)[C@H]([C@@H](C)O)NC4=O)cc3)no2)cc1 ; agent: Candida dubliniensis ; method: broth dilution ; measure: MIC50 ; value: 0.06 µg/mL
Cc1ccc(-n2cc(C(C)(C)O)nn2)cc1C ; agent: Candida parapsilosis ; strain: URM 4261 ; method: broth dilution ; measure: inhibition ; dose: 2048 µg/mL ; value: 0%
CC(O)Cc1ccc(Cn2cc(CN3CCN([C@H](C)[C@](O)(Cn4cncn4)c4ccc(F)cc4F)CC3)c3cccc(F)c32)cc1 ; agent: Candida albicans ; strain: ATCC 90028 ; method: resazurin ; measure: MIC80 ; value: 2 µg/mL
C/C(=N/O)C(Cl)(Cl)Cl ; agent: Candida lipolytica ; measure: MIC100 ; value: 6450 µM
C[C@@H](N1CCN(Cc2cn(Cc3cccc(C(F)(F)F)c3)c3ccccc23)CC1)[C@](O)(Cn1cncn1)c1ccc(F)cc1F ; agent: Candida albicans ; strain: ATCC 90028 ; method: resazurin ; measure: MIC80 ; value: 0.125 µg/mL
O/N=C\c1ccc(F)cc1 ; agent: Candida lipolytica ; measure: MIC ; value: 7200 µM
CCC(C)CC(C)CCCCCCCCC(=O)N[C@H]1C[C@@H](O)[C@H](NCCN)NC(=O)[C@@H]2[C@@H](O)CCN2C(=O)[C@H]([C@H](O)CCN)NC(=O)[C@H]([C@H](O)[C@@H](O)c2ccc(O)cc2)NC(=O)[C@@H]2C[C@@H](O)CN2C(=O)[C@H]([C@@H](C)O)NC1=O ; agent: Candida dubliniensis ; strain: C345 ; method: broth dilution ; measure: MIC ; value: 0.125 µg/mL
CC(=O)N1CCN(c2ccc(OC[C@H]3CO[C@](Cn4ccnc4)(c4ccc(Cl)cc4Cl)O3)cc2)CC1 ; agent: Candida albicans ; strain: 10 isolates ; method: broth dilution ; conditions: pH 4 ; measure: EC90 ; value: >16 µg/mL
O=C1S/C(=C\c2ccoc2)C(=O)N1CC(O)(Cn1nccn1)c1ccc(F)cc1F ; agent: Candida colliculosa ; strain: Fluconazole-resistant 0710922 ; measure: MIC80 ; value: 74 µg/mL
O=C(NN=C1CCCCC1)c1snnc1C(F)(F)F ; agent: Candida rugosa ; strain: NCIM 3462 ; method: agar diffusion / agar ; measure: zone ; dose: 100 µg/mL ; value: 0 mm
COc1ccc(C(c2ccc(OC)cc2)n2cncn2)cc1 ; agent: Candida glabrata ; method: broth dilution ; measure: MFC ; value: >256 µg/mL
O=C(NN=Cc1ccc([N+](=O)[O-])cc1)c1snnc1C(F)(F)F ; agent: Candida rugosa ; strain: NCIM 3462 ; method: agar diffusion / agar ; measure: zone ; dose: 100 µg/mL ; value: 0 mm
CCC(C)n1ncn(-c2ccc(N3CCN(c4ccc(OC[C@H]5CO[C@](Cn6cncn6)(c6ccc(Cl)cc6Cl)O5)cc4)CC3)cc2)c1=O ; agent: Candida glabrata ; strain: 40 isolates ; method: broth dilution ; conditions: pH 5 ; measure: MIC ; value: >16 µg/mL
C[C@@H](c1ncncc1F)[C@](O)(Cn1cncn1)c1ccc(F)cc1F ; agent: Candida tropicalis ; strain: 8685 ; method: broth dilution ; measure: MIC ; value: 0.015 µg/mL
Clc1ccc(C(c2ccccc2)N2CCN(CCn3ccnc3)CC2)cc1 ; agent: Candida glabrata ; method: agar ; measure: MIC90 ; value: >256 µg/mL
O/N=C\c1ccccc1 ; agent: Candida lipolytica ; measure: MIC100 ; value: 8260 µM
C=CCc1ccc(O)c(OC)c1 ; agent: Candida albicans ; strain: ATCC 90028 ; method: turbidity ; measure: MIC90 ; value: 475 µg/mL
O=C(c1ccccc1)C(c1ccccc1)n1cncn1 ; agent: Candida dubliniensis ; method: broth dilution ; measure: MFC ; value: 256 µg/mL
O/N=C\c1ccccc1O ; agent: Candida lipolytica ; measure: MIC ; value: 1800 µM
C=CCn1cc(CN2CCN([C@H](C)[C@](O)(Cn3cncn3)c3ccc(F)cc3F)CC2)c2ccc(Cl)cc21 ; agent: Candida albicans ; strain: ATCC 90028 ; method: resazurin ; measure: MIC80 ; value: 0.125 µg/mL
CC[C@@H]([C@H](C)O)n1ncn(-c2ccc(N3CCN(c4ccc(OC[C@@H]5CO[C@@](Cn6cncn6)(c6ccc(F)cc6F)C5)cc4)CC3)cc2)c1=O ; agent: Candida dubliniensis ; measure: MIC50 ; value: 0.008–0.5 µg/mL
CC(C)(O)c1cn(-c2cccc3ccccc23)nn1 ; agent: Candida albicans ; strain: URM 4609 ; method: broth dilution ; measure: inhibition ; dose: 2048 µg/mL ; value: 0%
Clc1ccc(C(c2ccccc2)n2ccnc2)cc1 ; agent: Candida dubliniensis ; method: agar ; measure: MIC90 ; value: 0.5 µg/mL
CCC(C)CC(C)CCCCCCCCC(=O)N[C@H]1C[C@@H](O)[C@H](NCCN)NC(=O)[C@@H]2[C@@H](O)CCN2C(=O)[C@H]([C@H](O)CCN)NC(=O)[C@H]([C@H](O)[C@@H](O)c2ccc(O)cc2)NC(=O)[C@@H]2C[C@@H](O)CN2C(=O)[C@H]([C@@H](C)O)NC1=O ; agent: Candida lusitaniae ; strain: UTHSC 11-537 ; method: broth dilution ; measure: MIC ; value: 0.5 µg/mL
CC[C@@H]([C@H](C)O)n1ncn(-c2ccc(N3CCN(c4ccc(OC[C@@H]5CO[C@@](Cn6cncn6)(c6ccc(F)cc6F)C5)cc4)CC3)cc2)c1=O ; agent: Candida glabrata ; strain: 40 isolates ; method: broth dilution ; conditions: pH 6 ; measure: MIC ; value: 2 µg/mL
CCC(C)CC(C)CCCCCCCCC(=O)N[C@H]1C[C@@H](O)[C@H](NCCN)NC(=O)[C@@H]2[C@@H](O)CCN2C(=O)[C@H]([C@H](O)CCN)NC(=O)[C@H]([C@H](O)[C@@H](O)c2ccc(O)cc2)NC(=O)[C@@H]2C[C@@H](O)CN2C(=O)[C@H]([C@@H](C)O)NC1=O ; agent: Candida dubliniensis ; measure: MIC50 ; value: 0.015–0.25 µg/mL
CC(C)S(=O)(=O)N1CCN(c2cnn(-c3cc(F)cc(F)c3)c(=O)c2OC2CCC(F)C2)CC1 ; agent: Candida dubliniensis ; strain: C345 ; method: broth dilution ; measure: MIC ; value: 0.5 µg/mL
O=C(NN=C1CCCC1)c1snnc1C(F)(F)F ; agent: Candida rugosa ; strain: NCIM 3462 ; method: agar diffusion / agar ; measure: zone ; dose: 150 µg/mL ; value: 0 mm

Repeating the first 6 entries:

| compound | agent | strain | method | conditions | measure | dose | value |
|---|---|---|---|---|---|---|---|
| COc1ccc(C=NNC(=O)c2snnc2C(F)(F)F)cc1 | Candida rugosa | NCIM 3462 | agar diffusion / agar | - | zone | 100 µg/mL | 0 mm |
| Clc1ccc(C(c2ccccc2)n2cnc3ccccc32)cc1 | Candida dubliniensis | - | broth dilution | - | MFC | - | >256 µg/mL |
| O=C(NN=Cc1cccs1)c1snnc1C(F)(F)F | Candida rugosa | NCIM 3462 | agar diffusion / agar | - | zone | 100 µg/mL | 0 mm |
| CCC(C)CC(C)CCCCCCCCC(=O)N[C@H]1C[C@@H](O)[C@H](NCCN)NC(=O)[C@@H]2[C@@H](O)CCN2C(=O)[C@H]([C@H](O)CCN)NC(=O)[C@H]([C@H](O)[C@@H](O)c2ccc(O)cc2)NC(=O)[C@@H]2C[C@@H](O)CN2C(=O)[C@H]([C@@H](C)O)NC1=O | Candida tropicalis | 8684 | broth dilution | - | MIC | - | 4 µg/mL |
| C[C@@H](N1CCN(Cc2cn(Cc3ccc(F)cc3F)c3c(F)cccc23)CC1)[C@](O)(Cn1cncn1)c1ccc(F)cc1F | Candida albicans | ATCC MYA-1003 | resazurin | - | MIC80 | - | 8 µg/mL |
| CC(C)(O)c1cn(-c2ccc3ccccc3c2)nn1 | Candida albicans | URM 4125 | broth dilution | - | inhibition | 2048 µg/mL | 0% |